Results from paper PMC11053489 (Viruses, 2024).
Counter-ions that a name gives are not always drawn.

Test system: SARS-CoV-2 (hCoV-19/USA-WA1/2020) in Vero CCL-81 cells
Type: cell-based
Details: not given

In order of rising “Vero CCL-81 unbound Cmax/EC50” value:
1. CCC(CC)COC(=O)[C@H](C)N[P@](=O)(OC[C@H]1O[C@@](C#N)(c2ccc3c(N)ncnn23)[C@H](O)[C@@H]1O)Oc1ccccc1 [Remdesivir]  0.14
2. CC(C)(C)[C@H](NC(=O)C(F)(F)F)C(=O)N1C[C@H]2[C@@H]([C@H]1C(=O)N[C@H](C#N)C[C@@H]1CCNC1=O)C2(C)C [Nirmatrelvir]  0.21
3. N#C[C@@]1(c2ccc3c(N)ncnn23)O[C@H](CO)[C@@H](O)[C@H]1O [GS-441524]  3.0

In order of rising “Unbound Cmax/EC50” value:
1. O=C(O)Cc1ccccc1Nc1c(Cl)cccc1Cl [Diclofenac sodium]  0.0001
2. CCCCCc1cc(O)c2c(c1)OC(C)(C)c1ccc(C)cc1-2 [Cannabinol]  0.0011
3. Cc1cc(C2=NO[C@@](c3cc(Cl)c(Cl)c(Cl)c3)(C(F)(F)F)C2)sc1C(=O)NCC(=O)NCC(F)(F)F [Lotilaner]  0.0035

Same assay, conditions: Table 1 drugs; Cmax × Fun/EC50

`Cc1cccc(/C=N/Nc2cc(N3CCOCC3)nc(OCCc3ccccn3)n2)c1` [Apilimod mesylate] was tested, and the “Vero CCL-81 unbound Cmax/EC50” value was “* 0.062”.

In order of rising “Vero CCL-81 unbound Cmax/EC50” value:
1. Cc1ccc(-c2cc(C(F)(F)F)nn2-c2ccc(S(N)(=O)=O)cc2)cc1 [Celecoxib]  0.008
2. O=c1c2ccccc2[se]n1-c1ccccc1 [Ebselen]  0.012
3. Cc1cccc(Nc2ccccc2C(=O)O)c1C [Mefenamic acid]  0.018
4. CC(c1cc2ccccc2s1)N(O)C(N)=O (stereo not drawn) [Zileuton]  0.02
5. COC(=O)N[C@H](C(=O)N1CCC[C@H]1c1nc(-c2ccc(-c3ccc(-c4c[nH]c([C@@H]5CCCN5C(=O)[C@@H](NC(=O)OC)C(C)C)n4)cc3)cc2)c[nH]1)C(C)C [Daclatasvir]  0.03
6. CC(=O)Oc1ccccc1C(=O)Nc1ncc([N+](=O)[O-])s1 [Nitazoxanide]  0.25
7. NC(=O)c1nc(F)c[nH]c1=O [Favipiravir]  2.1
8. CC(C)C(=O)OC[C@H]1O[C@@H](n2ccc(NO)nc2=O)[C@H](O)[C@@H]1O [Molnupiravir (NHC), Molnupiravir]  4.58
9. CC(C)C(=O)OC[C@H]1O[C@@](C#N)(c2ccc3c(N)ncnn23)[C@H](O)[C@@H]1O [Obeldesivir]  7.2

Same assay, conditions: Table 1 drugs; Cmax × Fun/EC50; listed as Apilimod

For `Cc1cccc(/C=N/Nc2cc(N3CCOCC3)nc(OCCc3ccccn3)n2)c1` [Apilimod mesylate], the “Vero CCL-81 unbound Cmax/EC50” value was 0.062.

Same assay, conditions: Table 3; Vero CCL-81 cells

In order of rising “Unbound Cmax/EC50” value:
1. CN(C)CCC(c1ccc(Cl)cc1)c1ccccn1 (stereo not drawn) [Chlorpheniramine maleate]  0.0002
2. COc1ccc2[nH]cc(CCNC(C)=O)c2c1 [Melatonin]  0.0002
3. COC(=O)N[C@H](C(=O)N1CCC[C@H]1c1nc(-c2ccc3c(c2)O[C@@H](c2ccccc2)n2c-3cc3cc(-c4c[nH]c([C@@H]5CCCN5C(=O)[C@@H](NC(=O)OC)C(C)C)n4)ccc32)c[nH]1)C(C)C [Elbasivir]  0.001
4. NC(N)=Nc1nc(CSCCC(N)=NS(N)(=O)=O)cs1 [Famotidine]  0.001
5. CC#CC(=O)N1CCC[C@H]1c1nc(-c2ccc(C(=O)Nc3ccccn3)cc2)c2c(N)nccn12 [Acalabrutinib]  0.002
6. CN(Cc1cc(Br)cc(Br)c1N)C1CCCCC1 [Bromhexine]  0.006
7. C[C@H]1c2cccc(O)c2C(=O)C2=C(O)[C@]3(O)C(=O)C(C(N)=O)=C(O)[C@@H](N(C)C)[C@@H]3[C@@H](O)[C@@H]21 [Doxycycline]  0.008
8. CN1CC[C@H](c2c(O)cc(O)c3c(=O)cc(-c4ccccc4Cl)oc23)[C@H](O)C1 [Flavopiridol]  0.99

In the case of `COC[C@H]1C[C@@H](c2nc(-c3ccc4c(c3)COc3cc5c(ccc6nc([C@@H]7CC[C@H](C)N7C(=O)[C@@H](NC(=O)OC)C(C)C)[nH]c65)cc3-4)c[nH]2)N(C(=O)[C@H](NC(=O)OC)c2ccccc2)C1` [Velpatasvir], the “Unbound Cmax/EC50” value is reported as 7.8 × 10^−5.
For `CC(C)C(=O)OCC(=O)[C@@]12O[C@H](C3CCCCC3)O[C@@H]1C[C@H]1[C@@H]3CCC4=CC(=O)C=C[C@]4(C)[C@H]3[C@@H](O)C[C@@]12C` [Ciclesonide], the “Unbound Cmax/EC50” value was 1.9 × 10^−6.
